We go through one substance from patent US20220275059A1.

In this assay the target is MERS-S on pseudotyped VSV particles (MERS-S carrying a 16-a.a. cytoplasmic tail truncation) (MERS-CoV) (UniProt K9N5Q8).

As to “isotype control (irrelevant antibody recognizing the Strep-tag affinity tag)”, the 50% inh titer, MERS-S VSV ps., column H2L2 MAb, row IsotypeCtrl is greater than 20 µg/mL.
